The list shows a part of the results, in another mix than the full data. Some structures show a salt or complex split into parts, the way the source records it. Activity calls are given as the source filed them. No stated cut-off is given here; in the data, active means inhibition above about 13% (passing the limit was not always enough); inactive means the rest.
target: Lon protease (Escherichia coli (strain K12)) (UniProt P0A9M0); assay: E. coli eLon protease inhibition – biochemical, fluorescence polarization, primary screen (AID 602123);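 further: 0% = enzyme with probe and DMSO and 100% = no enzyme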; conditions: purified E. coli Lon protease, at 7.94 µM, hits give high values

Protein sequences, listed by entry. Tags and fused reporters are not part of them.
UniProt P0A9M0, whole entry: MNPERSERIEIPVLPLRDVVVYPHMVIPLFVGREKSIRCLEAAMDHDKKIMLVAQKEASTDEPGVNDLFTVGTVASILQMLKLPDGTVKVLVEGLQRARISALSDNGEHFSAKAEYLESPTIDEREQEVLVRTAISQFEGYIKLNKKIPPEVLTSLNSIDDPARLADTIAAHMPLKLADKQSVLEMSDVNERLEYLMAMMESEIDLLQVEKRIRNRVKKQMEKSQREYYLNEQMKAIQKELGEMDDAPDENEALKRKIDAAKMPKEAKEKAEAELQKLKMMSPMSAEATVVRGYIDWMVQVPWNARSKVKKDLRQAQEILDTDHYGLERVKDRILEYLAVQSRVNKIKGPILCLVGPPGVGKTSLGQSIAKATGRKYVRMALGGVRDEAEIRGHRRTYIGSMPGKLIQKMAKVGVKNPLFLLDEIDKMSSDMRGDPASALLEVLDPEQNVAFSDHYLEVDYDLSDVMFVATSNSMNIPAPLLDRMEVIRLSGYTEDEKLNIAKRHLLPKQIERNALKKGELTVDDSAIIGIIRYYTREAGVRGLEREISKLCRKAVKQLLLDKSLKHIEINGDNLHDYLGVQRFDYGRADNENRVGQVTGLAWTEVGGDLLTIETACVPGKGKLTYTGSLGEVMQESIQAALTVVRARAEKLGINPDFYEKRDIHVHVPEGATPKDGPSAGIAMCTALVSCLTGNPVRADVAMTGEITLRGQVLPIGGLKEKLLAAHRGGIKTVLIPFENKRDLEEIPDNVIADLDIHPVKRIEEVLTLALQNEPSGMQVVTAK

Row | SMILES | inhibition
1 | Cc1c(C(c2ccc3c(c2)OCO3)c2c(C)n(C)n(-c3ccccc3)c2=O)c(=O)n(-c2ccccc2)n1C.O=[N+]([O-])c1cc([N+](=O)[O-])c(O)c([N+](=O)[O-])c1 | inactive: -1.22%
2 | Cc1cc(-c2cccc3ccccc23)c(C)cn1.O=[N+]([O-])c1cc([N+](=O)[O-])c(O)c([N+](=O)[O-])c1 | inactive: -14%
3 | O=[N+]([O-])c1cc([N+](=O)[O-])c(NCC2CCS(=O)(=O)C2)c([N+](=O)[O-])c1 (stereo not given) | inactive: -7.96%
4 | O=[N+]([O-])c1ccc(OP2(=O)COCCO2)cc1 (stereo not given) | inactive: 2.61%
5 | CCOP(C)(=S)SCC(=O)NC(C)(CC)C(=O)O (stereo not given) | inactive: -3.87%
6 | CP(=O)(Nc1ccc(SC(F)(F)F)cc1)Oc1ccc(F)cc1 (stereo not given) | inactive: 6.81%
7 | O=[N+]([O-])c1cc([N+](=O)[O-])c(C(F)(F)F)c([N+](=O)[O-])c1O | inactive: -3.41%
8 | Cc1ccccc1NP(C)(=O)Nc1ccccc1C | inactive: -4.09%
9 | CP(=O)(Nc1ccc2c(c1)OCCO2)Oc1ccccc1 (stereo not given) | inactive: -8.28%
10 | CC(C)c1ccc(OP(C)(=O)Nc2ccc(SC(F)(F)F)cc2)cc1 (stereo not given) | inactive: -11.7%
11 | CP(=O)(Nc1ccccc1F)Oc1ccccc1 (stereo not given) | inactive: 10.9%
12 | O=[N+]([O-])c1cc([N+](=O)[O-])c(Nc2ccc(Cl)cc2)c([N+](=O)[O-])c1 | inactive: 5.68%
13 | COc1ccc2c(c1O)-c1c(O)c(OC)cc3c1[C@H](C2)[N+](C)(C)CC3.O=[N+]([O-])c1cc([N+](=O)[O-])c([O-])c([N+](=O)[O-])c1[O-] | inactive: 5.16%
14 | O=C(OCCN1CCN(CCOCc2ccccc2)CC1)C(O)(c1ccccc1)c1ccccc1 | inactive: -0.87%
15 | O=C(OC1CN2CCC1CC2)c1ccc([N+](=O)[O-])cc1 (stereo not given) | inactive: -11.8%
16 | COc1ccc(OP(C)(=O)Nc2ccc(SC(F)(F)F)cc2)cc1 (stereo not given) | inactive: 1.12%
17 | CCOC(=O)c1ccc(NP(C)(=O)Oc2ccc(F)cc2)cc1 (stereo not given) | inactive: 0.17%
18 | CCN(CC)CCCNc1ccccc1[N+](=O)[O-].O=[N+]([O-])c1cc([N+](=O)[O-])c(O)c([N+](=O)[O-])c1 | inactive: -4.36%
19 | CCCCCOc1ccc(NP(C)(=O)Oc2ccc(Cl)cc2Cl)cc1 (stereo not given) | inactive: -1.66%
20 | O=[N+]([O-])c1cc([N+](=O)[O-])c(OC2CCCCC2O)c([N+](=O)[O-])c1 (stereo not given) | inactive: -1.32%
21 | CP(=O)(Nc1ccccc1)Oc1ccc(F)cc1 (stereo not given) | inactive: -12.6%
22 | CCN(CC)CCCOC(=O)C(O)(c1ccccc1)C1CCCCC1 (stereo not given) | inactive: -6.34%
23 | Cc1c([N+](=O)[O-])cc([N+](=O)[O-])c(Br)c1[N+](=O)[O-] | inactive: -15.3%
24 | COc1ccc(OP(C)(=O)Nc2ccccc2Br)cc1 (stereo not given) | inactive: -0.6%
25 | COc1ccccc1OP(C)(=O)Nc1ccc(C)c(C)c1 (stereo not given) | inactive: 0.69%

Row | SMILES | inhibition
26 | O=C1C(O)=C([N+](=O)[O-])C(=O)C(O)=C1[N+](=O)[O-] | inactive: 4.36%
27 | Cc1cc(C)cc(OP(C)(=O)Nc2cccc(C(F)(F)F)c2)c1 (stereo not given) | inactive: -1.4%
28 | CP(=O)(OCCOc1ccccc1)OCCOc1ccccc1 | inactive: -1.04%
29 | CCCCCCCCCCCCCCCC1C[N+](C)(C)CCOP(C)(=O)O1 (stereo not given) | inactive: 2.17%
30 | CP(=O)(Nc1ccc(Cl)cc1Cl)Oc1ccccc1 (stereo not given) | inactive: -3.23%
31 | CN(C)CCOC(=O)C(O)(c1ccccc1)C1CCCC1 (stereo not given) | inactive: -13%
32 | COc1ccc(OP(C)(=O)Nc2ccccn2)cc1 (stereo not given) | inactive: 2.49%
33 | COc1ccccc1OP(C)(=O)Nc1ccc(Br)cc1 (stereo not given) | inactive: -11.4%
34 | CCc1ccc(OP(C)(=O)O)cc1 | inactive: -0.45%
35 | CP(=O)(Nc1ccccn1)Oc1ccccc1 (stereo not given) | inactive: 4.95%
36 | COc1ccccc1OP(C)(=O)Nc1ccc(C)cc1C (stereo not given) | inactive: -14.4%
37 | O=[N+]([O-])c1cc([N+](=O)[O-])c(Nc2ccccn2)c([N+](=O)[O-])c1 | inactive: 2.77%
38 | Cc1c(NP(C)(=O)Oc2ccc(C(C)C)cc2)c(=O)n(-c2ccccc2)n1C (stereo not given) | inactive: 3.9%
39 | CP(=O)(Oc1ccccc1)N1CCOC1=O (stereo not given) | inactive: 12.5%
40 | CCc1ccc(OP(C)(=O)Nc2cccnc2)cc1 (stereo not given) | inactive: 5.83%
41 | COc1ccccc1OP(C)(=O)Nc1c(C)n(C)n(-c2ccccc2)c1=O (stereo not given) | inactive: 5.16%
42 | O=C(OCCCN1CCCC1)C(O)(c1ccccc1)C1CCCCC1 (stereo not given) | inactive: 7.84%
43 | CCN(CC)CC(O)COC(=O)C(O)(c1ccccc1)C1CCCCC1 (stereo not given) | inactive: 5.51%
44 | COc1ccc(OP(C)(=O)Nc2ccc(Br)cc2)cc1 (stereo not given) | inactive: -8.67%
45 | CN(C)C(=O)c1c([N+](=O)[O-])cc([N+](=O)[O-])cc1[N+](=O)[O-] | inactive: 5.96%
46 | CP(=O)(Nc1ccc(Cl)cc1)Oc1ccc(F)cc1 (stereo not given) | inactive: -13.4%
47 | CC(C)(C)c1ccc(OP(C)(=O)O)cc1 | inactive: 8.14%
48 | COc1ccccc1OP(C)(=O)Nc1ccccc1Br (stereo not given) | inactive: -2.27%
49 | CP(=O)(OC12CC3CC(CC(C3)C1)C2)OC12CC3CC(CC(C3)C1)C2 | inactive: 0.44%
50 | CCOC(=O)c1ccc(NP(C)(=O)Oc2ccc(Cl)cc2)cc1 (stereo not given) | inactive: 1.25%

From PubChem BioAssay AID602123 (The Scripps Research Institute Molecular Screening Center, 2011)
